Results published in patent US5585367A (priority 1990, dated 1996).
Read-outs that look alike come from different tables or passages of the source.

Columns and labels:
HIV-1 [1] = conditions: for Measure of the infectious power of the HIV-1 (p24): 14th day after inoculation
HIV-1 [2] = conditions: virus previously treated; syncytia in virus control from 14th day

N=C(N)N=NC(=N)N
protection of Supt-1 cells (HIV-1 [1]; dilution 1/500, treatment of the viruses for 1 minute only): protects the Supt-1 cells
Measure of the infectious power of the HIV-1 (p24) (HIV-1 [1]; dilution 1/500, viruses treated 1 min): 0.234 ± 0.008 optical density 492 nm
Measure of the infectious power of the HIV-1 (p24) (HIV-1 [1]; dilution 1/500, viruses treated 10 min): 0.267 ± 0.021 optical density 492 nm
Measure of the infectious power of the HIV-1 (p24) (HIV-1 [1]; dilution 1/500, viruses treated 30 min): 0.245 ± 0.020 optical density 492 nm
Measure of the infectious power of the HIV-1 (p24) (HIV-1 [1]; dilution 1/1500, viruses treated 1 min): 0.469 ± 0.013 optical density 492 nm
Measure of the infectious power of the HIV-1 (p24) (HIV-1 [1]; dilution 1/1500, viruses treated 10 min): 0.439 ± 0.008 optical density 492 nm
Measure of the infectious power of the HIV-1 (p24) (HIV-1 [1]; dilution 1/1500, viruses treated 30 min): 0.406 ± 0.032 optical density 492 nm
Measure of the infectious power of the HIV-1 (p24) (HIV-1 [1]; dilution 1/3000, viruses treated 1 min): 0.809 ± 0.049 optical density 492 nm
Measure of the infectious power of the HIV-1 (p24) (HIV-1 [1]; dilution 1/3000, viruses treated 10 min): 0.505 ± 0.023 optical density 492 nm
Measure of the infectious power of the HIV-1 (p24) (HIV-1 [1]; dilution 1/3000, viruses treated 30 min): 0.740 ± 0.013 optical density 492 nm
cytopathogenic effect (HIV-1 [2]): no cytopathogenic effect was observed
